Data on 14 molecules can be found in patent US20250115620A1, “BRIDGED TRICYCLIC CARBAMOYLPYRIDONE COMPOUNDS AND USES THEREOF” (Gilead Sciences, Inc., priority 2022, published 2025).

In this data set the test system is pLAI reporter virus. It counts as cell-based, HIV. Conditions: EC50 (50% HS)/EC50 (CCM).
In the case of `CC1=NO[C@@]2(CC[C@@H](C)N3C[C@H]2n2cc(C(=O)NCc4c(F)cc(F)cc4F)c(=O)c(O)c2C3=O)C1` [Example 98, (3′R,5S,7′R)-12′-hydroxy-3,3′-dimethyl-1′,11′-dioxo-N-(2,4,6-trifluorobenzyl)-1′,4′,5′,11′-tetrahydro-3′H,4H,7′H-spiro[isoxazole-5,6′-[2,7]methanopyrido[1,2-a][1,4]diazonine]-10′-carboxamide], the “RLUC 50% HS Shift” value stood at 15×. The result for `COC1=NO[C@@]2(CC[C@H](CF)N3C[C@H]2n2cc(C(=O)NCc4c(F)cc(F)cc4F)c(=O)c(O)c2C3=O)C1` [Example 99, (3′R,5S,7′R)-3′-(fluoromethyl)-12′-hydroxy-3-methoxy-1′,11′-dioxo-N-(2,4,6-trifluorobenzyl)-1′,4′,5′,11′-tetrahydro-3′H,4H,7′H-spiro[isoxazole-5,6′-[2,7]methanopyrido[1,2-a][1,4]diazonine]-10′-carboxamide] reads 99×.

In the case of `COC1=NO[C@@]2(CC[C@H](CF)N3C[C@H]2n2cc(C(=O)NCc4ccc(F)cc4F)c(=O)c(O)c2C3=O)C1` [Example 100, (3′R,5S,7′R)—N-(2,4-difluorobenzyl)-3′-(fluoromethyl)-12′-hydroxy-3-methoxy-1′,11′-dioxo-1′,4′,5′,11′-tetrahydro-3′H,4H,7′H-spiro[isoxazole-5,6′-[2,7]methanopyrido[1,2-a][1,4]diazonine]-10′-carboxamide], the “RLUC 50% HS Shift” value is given as 45×. Consider `C[C@H]1CC[C@]2(CC(=O)NO2)[C@H]2CN1C(=O)c1c(O)c(=O)c(C(=O)NCc3c(F)cc(F)cc3F)cn12` [Example 101, (3′S,5S,7′R)-12′-hydroxy-3′-methyl-1′,3,11′-trioxo-N-(2,4,6-trifluorobenzyl)-1′,4′,5′,11′-tetrahydro-3′H,7′H-spiro[isoxazolidine-5,6′-[2,7]methanopyrido[1,2-a][1,4]diazonine]-10′-carboxamide], for which the “RLUC 50% HS Shift” value stood at 12×. The same measure for `C[C@H]1CC[C@@]2(CC(=O)N(Cc3ccc(F)cc3)O2)[C@H]2CN1C(=O)c1c(O)c(=O)c(C(=O)NCc3c(F)cc(F)cc3F)cn12` [Example 102, (3′S,5R,7′R)-2-(4-fluorobenzyl)-12′-hydroxy-3′-methyl-1′,3,11′-trioxo-N-(2,4,6-trifluorobenzyl)-1′,4′,5′,11′-tetrahydro-3′H,7′H-spiro[isoxazolidine-5,6′-[2,7]methanopyrido[1,2-a][1,4]diazonine]-10′-carboxamide]: 15×; for `C[C@H]1CC[C@]2(CC(=O)N(Cc3ccc4c(cnn4C)c3)O2)[C@H]2CN1C(=O)c1c(O)c(=O)c(C(=O)NCc3c(F)cc(F)cc3F)cn12` [Example 103, (3′S,5S,7′R)-12′-hydroxy-3′-methyl-2-((1-methyl-1H-indazol-5-yl)methyl)-1′,3,11′-trioxo-N-(2,4,6-trifluorobenzyl)-1′,4′,5′,11′-tetrahydro-3′H,7′H-spiro[isoxazolidine-5,6′-[2,7]methanopyrido[1,2-a][1,4]diazonine]-10′-carboxamide]: 2×.

Take `C[C@H]1CC[C@]2(CC(=O)N(Cc3cnn(C)n3)O2)[C@H]2CN1C(=O)c1c(O)c(=O)c(C(=O)NCc3c(F)cc(F)cc3F)cn12` [Example 104, (3′S,5S,7′R)-12′-hydroxy-3′-methyl-2-((2-methyl-2H-1,2,3-triazol-4-yl)methyl)-1′,3,11′-trioxo-N-(2,4,6-trifluorobenzyl)-1′,4′,5′,11′-tetrahydro-3′H,7′H-spiro[isoxazolidine-5,6′-[2,7]methanopyrido[1,2-a][1,4]diazonine]-10′-carboxamide]: the “RLUC 50% HS Shift” value is given as 0×. The same measure for `C[C@H]1CC[C@]2(CC(=O)N(CCc3ccccc3)O2)[C@H]2CN1C(=O)c1c(O)c(=O)c(C(=O)NCc3c(F)cc(F)cc3F)cn12` [Example 105, (3′S,5S,7′R)-12′-hydroxy-3′-methyl-1′,3,11′-trioxo-2-phenethyl-N-(2,4,6-trifluorobenzyl)-1′,4′,5′,11′-tetrahydro-3′H,7′H-spiro[isoxazolidine-5,6′-[2,7]methanopyrido[1,2-a][1,4]diazonine]-10′-carboxamide]: 52×.

For the molecule `C[C@H]1CC[C@]2(CC(=O)N(Cc3cccc4ccccc34)O2)[C@H]2CN1C(=O)c1c(O)c(=O)c(C(=O)NCc3c(F)cc(F)cc3F)cn12` [Example 106, (3′S,5S,7′R)-12′-hydroxy-3′-methyl-2-(naphthalen-1-ylmethyl)-1′,3,11′-trioxo-N-(2,4,6-trifluorobenzyl)-1′,4′,5′,11′-tetrahydro-3′H,7′H-spiro[isoxazolidine-5,6′-[2,7]methanopyrido[1,2-a][1,4]diazonine]-10′-carboxamide], the “RLUC 50% HS Shift” value came out at 321×. For `C[C@H]1CC[C@]2(CC(=O)N(Cc3ccc4ccccc4c3)O2)[C@H]2CN1C(=O)c1c(O)c(=O)c(C(=O)NCc3c(F)cc(F)cc3F)cn12` [Example 107, (3′S,5S,7′R)-12′-hydroxy-3′-methyl-2-(naphthalen-2-ylmethyl)-1′,3,11′-trioxo-N-(2,4,6-trifluorobenzyl)-1′,4′,5′,11′-tetrahydro-3′H,7′H-spiro[isoxazolidine-5,6′-[2,7]methanopyrido[1,2-a][1,4]diazonine]-10′-carboxamide], the “RLUC 50% HS Shift” value worked out at 34×. Turning to `C[C@H]1CC[C@]2(CC(=O)N(C)O2)[C@H]2CN1C(=O)c1c(O)c(=O)c(C(=O)NCc3c(F)cc(F)cc3F)cn12` [Example 108, (3′S,5S,7′R)-12′-hydroxy-2,3′-dimethyl-1′,3,11′-trioxo-N-(2,4,6-trifluorobenzyl)-1′,4′,5′,11′-tetrahydro-3′H,7′H-spiro[isoxazolidine-5,6′-[2,7]methanopyrido[1,2-a][1,4]diazonine]-10′-carboxamide], the “RLUC 50% HS Shift” value is reported as 16×. The same measure for `C[C@H]1CC[C@]2(CC(=O)N(Cc3ccc(Cl)cc3)O2)[C@H]2CN1C(=O)c1c(O)c(=O)c(C(=O)NCc3c(F)cc(F)cc3F)cn12` [Example 109, (3′S,5S,7′R)-2-(4-chlorobenzyl)-12′-hydroxy-3′-methyl-1′,3,11′-trioxo-N-(2,4,6-trifluorobenzyl)-1′,4′,5′,11′-tetrahydro-3′H,7′H-spiro[isoxazolidine-5,6′-[2,7]methanopyrido[1,2-a][1,4]diazonine]-10′-carboxamide]: 13×; for `C[C@H]1CC[C@]2(CC(=O)N(Cc3ccc(F)cc3F)O2)[C@H]2CN1C(=O)c1c(O)c(=O)c(C(=O)NCc3c(F)cc(F)cc3F)cn12` [Example 110, (3′S,5S,7′R)-2-(2,4-difluorobenzyl)-12′-hydroxy-3′-methyl-1′,3,11′-trioxo-N-(2,4,6-trifluorobenzyl)-1′,4′,5′,11′-tetrahydro-3′H,7′H-spiro[isoxazolidine-5,6′-[2,7]methanopyrido[1,2-a][1,4]diazonine]-10′-carboxamide]: 10×; for `C[C@H]1CC[C@]2(CC(=O)N(Cc3cccc(C(F)(F)F)c3)O2)[C@H]2CN1C(=O)c1c(O)c(=O)c(C(=O)NCc3c(F)cc(F)cc3F)cn12` [Example 111, (3′S,5S,7′R)-12′-hydroxy-3′-methyl-1′,3,11′-trioxo-N-(2,4,6-trifluorobenzyl)-2-(3-(trifluoromethyl)benzyl)-1′,4′,5′,11′-tetrahydro-3′H,7′H-spiro[isoxazolidine-5,6′-[2,7]methanopyrido[1,2-a][1,4]diazonine]-10′-carboxamide]: 5×.
